{"source": "paper PMC2720045", "about": "(Proteins, 2009)", "key": {"[1]": {"test_system": "PRD25N (HIV-1 protease D25N mutant)", "test": "DSC thermal denaturation of PRD25N with inhibitors", "type": "binding"}, "[2]": {"test_system": "PRD29N (HIV-1 protease D29N mutant)", "conditions": "DSC"}}, "data": [{"substance": "acetyl pepstatin [Ac-PEP]", "values": [{"measurement": "ΔTm ratio ΔTm(PR)/ΔTm(PRD25N)", "setting": "[1]", "value": 16.3}, {"measurement": "ΔTm ratio ΔTm(PR)/ΔTm(PRD29N)", "setting": "[2]", "value": "≥ 44"}]}]}
